We go through nine compounds from ChEMBL document CHEMBL3580569, “N-Substituted Quinolinonyl Diketo Acid Derivatives as HIV Integrase Strand Transfer Inhibitors and Their Activity against RNase H Function of Reverse Transcriptase” (J Med Chem, 2015).

This experiment has as its target Human immunodeficiency virus type 1 reverse transcriptase (Human immunodeficiency virus 1) (UniProt Q72547). As to the kind of experiment: Inhibition of RNase H function of HIV1 reverse transcriptase using DNA/RNA hybrid as substrate at 10 uM by fluorescence spectrometer analysis.

The inhibition is the change of the read-out against control, counted positive when it falls. Read a low inhibition as little suppression.

Take `O=C(O)/C(O)=C/C(=O)c1cn(Cc2ccccc2F)c2cc(Cl)ccc2c1=O`: the inhibition amounted to 36.5%.
Next, `O=C(O)/C(O)=C/C(=O)c1cn(Cc2ccc(Cl)cc2Cl)c2ccccc2c1=O`: 68%; `Cc1cc(C)cc(Cn2cc(C(=O)/C=C(\O)C(=O)O)c(=O)c3ccccc32)c1`: 47%.
For the compound `O=C(O)/C(O)=C/C(=O)c1cn(Cc2c(F)cccc2F)c2ccccc2c1=O` [RDS-1984], the inhibition is 57.9%.
In turn, `O=C(O)/C(O)=C/C(=O)c1cn(Cc2ccc(O)cc2)c2ccccc2c1=O` yielded an inhibition of 44.4%.
On to `O=C(O)/C(O)=C/C(=O)c1cn(Cc2ccc([N+](=O)[O-])cc2)c2ccccc2c1=O`, for which the inhibition amounted to 42.4%.
To `O=C(O)/C(O)=C/C(=O)c1cn(Cc2ccc(F)cc2F)c2ccccc2c1=O` belongs 46%; to `Cc1ccc(Cn2cc(C(=O)/C=C(\O)C(=O)O)c(=O)c3ccccc32)c(C)c1`, 52%; to `COc1ccccc1Cn1cc(C(=O)/C=C(\O)C(=O)O)c(=O)c2ccccc21`, 45.2%.
